A mixed list of measured activities; the numbers were collected in NIAID ChemDB.

Shared fields: tests in culture; species: Mycobacterium tuberculosis

A number after MIC or MFC names an inhibition level or a share of isolates.

| smiles | read-out | changes | tested at | strain | cell line | read by | result |
|---|---|---|---|---|---|---|---|
| CCCCCCCCC=CCCCCCCCCNCc1cccnc1 | MIC |  |  | Clinical isolates MDR |  |  | 25 µg/mL |
| COc1ccc(-c2noc(C3=CC4(CCN(CC5CCCO5)CC4)c4ccccc43)n2)cc1 | MIC | Drug-resistant |  | 18b+ |  | resazurin | 0.78 µM |
| CO[C@H]1/C=C/O[C@@]2(C)Oc3c(C)c(O)c4c(O)c(c5c(c4c3C2=O)NC2(CCN(CC(C)C)CC2)N=5)=NC(=O)/C(C)=C\C=C\[C@H](C)[C@H](O)[C@@H](C)[C@@H](O)[C@@H](C)[C@H](OC(C)=O)[C@@H]1C | MIC |  |  | 2275 (rifampin-resistant) |  |  | 0.4 µg/mL |
| Cl.Cn1c2cc(=O)ccc2c2c3nc4ccccc4[nH]c3cc(O)c21 | inhibition |  | 12.5 µg/mL | H37Rv |  | BACTEC | 4% |
| CO[C@H]1/C=C/O[C@@]2(C)Oc3c(C)c(O)c4c(O)c(cc(OCC(=O)Nc5ccc(I)cc5)c4c3C2=O)NC(=O)/C(C)=C\C=C\[C@H](C)[C@H](O)[C@@H](C)[C@@H](O)[C@@H](C)[C@H](OC(C)=O)[C@@H]1C | MIC |  |  | H37Rv |  |  | 0.15 µg/mL |
| NNC(=O)c1ccncc1 | MIC |  |  | Strain 448 |  |  | 8 µg/mL |
| O=c1oc2ccccc2cc1-c1cs/c(=N\N=C\c2cc(Br)ccc2O)n1C1CCCCC1 | EC50 |  |  | H37Rv |  |  | <12.5 µg/mL |
| COc1ccc(-c2noc(C3=CC4(CCN(C(=O)C5CCCO5)CC4)c4ccccc43)n2)cc1 | MIC |  |  | H37Rv |  | resazurin | 100 µM |
| COc1c2ccoc2cc2oc(COC3OC(CO)C(O)C(O)C3O)cc(=O)c12 | MIC bound |  |  | H37Rv |  | BACTEC | >12.8 µg/mL |
| CCCCn1c(-c2cc3cc(Br)ccc3oc2=O)cs/c1=N\N=C\c1ccc(O)c(OCC)c1 | MIC |  |  | H37Rv |  |  | >12.5 µg/mL |
| N#C/C(=C/c1ccccc1I)n1nnc2ccccc21 | MIC50 |  |  | ATCC 27294 |  |  | 11.3 µM |
| O=C1c2ccc(Cl)cc2-n2c1nc1ccccc1c2=O | MIC |  |  | H37Rv |  |  | 1 µg/mL |
| CCN(CC)CCN(CC)CCN(C)C(=O)COc1cc2c(O)c3c(O)c(C)c4c(c13)C(=O)[C@@](C)(O/C=C/[C@H](OC)[C@@H](C)[C@@H](OC(C)=O)[C@H](C)[C@H](O)[C@H](C)[C@@H](O)[C@@H](C)/C=C/C=C(/C)C(=O)N2)O4 | MIC |  |  | H37Rv |  |  | 0.18 µg/mL |
| O=C(/C=C/c1ccc(Cl)cc1)Oc1ccc(/C=C2\CCC/C(=C\c3ccc(OC(=O)/C=C/c4ccc(Cl)cc4)cc3)C2=O)cc1 | EC50 |  |  | H37Rv |  |  | >12.5 µg/mL |
| CO[C@H]1/C=C/O[C@@]2(C)Oc3c(C)c(O)c4c(O)c(c(/C=N/N5CCN(C/C=C/c6ccccc6)CC5)c(O)c4c3C2=O)NC(=O)/C(C)=C\C=C\[C@H](C)[C@H](O)[C@@H](C)[C@@H](O)[C@@H](C)[C@H](OC(C)=O)[C@@H]1C | MBC |  |  | 35 (rifampin-resistant) |  |  | 0.8 µg/mL |
| N#C/C(=C\c1c(Cl)cccc1Cl)n1nnc2ccccc21 | MIC90 |  |  | ATCC 27294 |  |  | 22.2 µM |
| Cl.Cl.Cl.FC(F)(F)c1ccc2c(c1)N(CCCN1CCN(CCN3CCCCC3)CC1)c1ccccc1S2 | MIC |  |  | H37Rv | VERO | BACTEC | 6.25 µg/mL |
| CCCCCCCCC=CCCCCCCCCNCc1ccc(Cl)cc1 | MIC |  |  | Sensitive strains |  |  | 3.12 µg/mL |
| O=C1c2ccccc2-n2c1nc1ccc(F)cc1c2=O | MIC |  |  | MDR 10038 |  |  | 1.3 µg/mL |
| CC(=O)NC[C@H]1CN(c2ccc(N3CCOCC3)c(F)c2)C(=O)O1 | MIC |  |  | Strain 32 |  |  | 0.5 µg/mL |
| CC1=NN(c2ccccc2)C(=O)C1N=Nc1c(O)cc(S(=O)(=O)O)c2ccccc12 | MIC |  |  | H37Rv |  | BACTEC | ≥12.5 µg/mL |
| CCCCCCCCC=CCCCCCCCCNCc1ccccc1O | MIC |  |  | H37Ra |  |  | <25 µg/mL |
| COS(=O)c1cc(Cl)cc(Cl)c1OC(=O)CSSCC(=O)Oc1c(Cl)cc(Cl)cc1S(=O)OC | inhibition |  | 6.25 µg/mL | H37Rv |  | resazurin | -33% |
| CNC(=S)N(Cc1ccco1)c1ccc(Cl)c(Cl)c1 | zone |  | 1000 µg/mL |  |  | visual reading | 14.82 mm |
| NNC(=O)c1ccncc1 | MIC |  |  | 3S |  |  | 0.1 µg/mL |
| Cc1ccc(/C=C/C(=O)Oc2ccc(/C=C3\CCCC(CN(C)C)C3=O)cc2)cc1 | EC50 |  |  | H37Rv |  |  | <12.5 µg/mL |
| Cc1cc2c(C(C)C)c(O)c(O)c(C=O)c2c(O)c1-c1c(C)cc2c(C(C)C)c(O)c(O)c(C=O)c2c1O | MIC bound |  |  | H37Rv |  | BACTEC | >12.8 µg/mL |
| CC(C)(C)OC(=O)N1CCN(c2ccc3c(c2)-n2c(nc4ccccc4c2=O)C3=O)CC1 | MIC |  |  | MDR 10038 |  |  | >5 µg/mL |
| O=c1oc2ccccc2cc1-c1cs/c(=N/N=C/c2ccc(Cl)cc2)n1C1CCCCC1 | MIC |  |  | H37Rv |  |  | >12.5 µg/mL |
| CCN(CC)C(=O)COc1cc2c(O)c3c(O)c(C)c4c(c13)C(=O)[C@@](C)(O/C=C/[C@H](OC)[C@@H](C)[C@@H](OC(C)=O)[C@H](C)[C@H](O)[C@H](C)[C@@H](O)[C@@H](C)/C=C/C=C(/C)C(=O)N2)O4 | MIC |  |  | H37Rv |  |  | 0.075 µg/mL |
| CCCCCCCCCCCCNC(CC(=O)OCC)c1cccc([N+](=O)[O-])c1 | MIC |  |  | H37Ra |  |  | >25 µg/mL |
| C[C@]1(COc2ccc(N3CCC(Oc4ccc(OC(F)(F)F)cc4)CC3)cc2)Cn2cc([N+](=O)[O-])nc2O1 | MIC90 |  |  | 11 strains (EMB-resistant) |  |  | 0.014 µg/mL |
| CC1COc2c(N3CCN(C)CC3)c(F)cc3c(=O)c(C(=O)O)cn1c23 | MIC | Streptomycin-resistant |  | 136570 |  | resazurin | 0.14 µM |
| Cc1ccc(-c2ccc3c(n2)CC(C)(C)CC3=O)cc1 | MIC |  |  | H37Rv |  |  | >25 µg/mL |
| N[C@@H]1CN(c2c(F)cc3c(=O)c(C(=O)O)cn([C@@H]4C[C@@H]4F)c3c2Cl)CC12CC2 | MIC90 | Pre-XDR (fluoroquinolone-resistant) |  | Clinical strain |  | resazurin | 0.5 µg/mL |
| CCOC(=O)c1ccc(-c2ccc3sc4ccccc4c3c2)nc1C | MIC |  |  | H37Rv |  |  | 25 µg/mL |
| NC[C@H]1O[C@H](O[C@H]2[C@H](O)[C@@H](O[C@H]3O[C@H](CO)[C@@H](O)[C@H](N)[C@H]3O)[C@H](N)C[C@@H]2N)[C@H](O)[C@@H](O)[C@@H]1O | MIC |  |  | Isolate 10 |  |  | 32 µg/mL |
| CCn1c(-c2cc3cc(Br)ccc3oc2=O)cs/c1=N\N=C\c1ccc(Cl)cc1 | EC50 |  |  | H37Rv |  |  | <12.5 µg/mL |
| Nc1nc2nn(-c3ccc(C(=O)O)cc3)nc2c(=O)[nH]1 | inhibition |  | 6.25 µg/mL | H37Rv |  | BACTEC | 0% |
| CO[C@H]1/C=C/O[C@@]2(C)Oc3c(C)c(O)c4c(O)c(cc(OCC(=O)N5CCCC5)c4c3C2=O)NC(=O)/C(C)=C\C=C\[C@H](C)[C@H](O)[C@@H](C)[C@@H](O)[C@@H](C)[C@H](OC(C)=O)[C@@H]1C | MIC |  |  | H37Rv |  |  | 0.01 µg/mL |
| COc1ccc2c(c1)c(CC(N)=O)c(C)n2Cc1ccccc1 | inhibition |  | 6.25 µg/mL | H37Rv |  | resazurin | 78% |
| CCCCCCCCCCCCCCCCNCc1ccc(O)c(OC)c1 | MIC |  |  | H37Ra |  |  | >25 µg/mL |
| NCC[C@H](O)C(=O)N[C@@H]1C[C@H](N)[C@@H](O[C@H]2O[C@H](CN)[C@@H](O)[C@H](O)[C@H]2O)[C@H](O)[C@H]1O[C@H]1O[C@H](CO)[C@@H](O)[C@H](N)[C@H]1O | MIC |  |  | 10S |  |  | 2.5 µg/mL |
| Cc1cc(-c2cc3c(cc2F)c(=O)c(C(=O)O)cn3C2CC2)cc(C)n1 | MBC |  |  | 131-4 |  |  | 1 µg/mL |
| Oc1ccccc1CNCCCCCCCCCCCCNCc1ccccc1O | MIC |  |  | Sensitive strains |  |  | 3.12 µg/mL |
| Cc1oc2ccccc2c(=O)c1Cn1cnc2ccc([N+](=O)[O-])cc21 | inhibition |  | 6.25 µg/mL | H37Rv |  | resazurin | 4% |
| COc1cc(C2=NN(C(=O)COc3ccc4ccccc4c3)C3CCCC23)c(C)cc1OCC(=O)O | MIC |  |  | Isoniazid-resistant |  |  | >6.25 µg/mL |
| CCN(CC)Cc1nccn1-c1ccc([N+](=O)[O-])cc1C(=O)c1ccccc1Cl | inhibition |  | 6.25 µg/mL | H37Rv |  | resazurin | 3% |
| CCOC(=O)c1ccc(-c2ccc(C)cc2)nc1C | MIC |  |  | H37Rv |  |  | >25 µg/mL |
| O=C1c2cc(Br)ccc2-n2c1nc1ccccc1c2=O | MIC |  |  | H37Rv |  |  | <0.2 µg/mL |
| CCC(C)N(C(=S)NC)c1ccc(Cl)c(Cl)c1 | MIC |  |  |  |  | visual reading | >400 µg/mL |
| CCOC(=O)c1ccc(-c2ccc(C)c3c2OC(C)C3)nc1C | MIC |  |  | H37Rv |  |  | 25 µg/mL |
| CC[C@@H](CO)NCCN[C@@H](CC)CO | MIC | Drug-resistant |  | D-211 |  | resazurin | 1.2 µM |
| N#C/C(=C/c1cccc(Br)c1)n1nnc2ccccc21 | MIC90 |  |  | ATCC 27294 |  |  | >100 µM |
| CN(C)CC1CCC/C(=C\c2ccc(OC(=O)/C=C/c3ccc(Cl)cc3)cc2)C1=O | EC50 |  |  | H37Rv |  |  | <12.5 µg/mL |
| CCOC(=O)CC(c1cccc(Cl)c1)N1CCCC1 | MIC |  |  | H37Ra |  |  | >25 µg/mL |
| OC(c1cc(-c2ccccc2)nc2c(Cl)cc(Cl)cc12)C1CCCCN1 | MIC |  |  | H37Rv |  | resazurin | 3.13 µg/mL |
| CN[C@@H]1[C@H](O[C@H]2[C@H](O[C@H]3[C@H](O)[C@@H](O)[C@H](N=C(N)N)[C@@H](O)[C@@H]3N=C(N)N)O[C@@H](C)[C@]2(O)C=O)O[C@@H](CO)[C@H](O)[C@H]1O | MIC | Streptomycin-resistant |  | 136570 |  | resazurin | >55 µM |
| C[C@H]1COc2c(N3CCN(C)CC3)c(F)cc3c(=O)c(C(=O)O)cn1c23 | MIC |  |  | Isolate 13 |  |  | 0.25 µg/mL |
| COc1cc(C2SCC(=O)N2c2nnc(C(F)(F)F)s2)cc(OC)c1OC | inhibition |  | 12.5 µg/mL | H37Rv |  | BACTEC | 4% |
| O=C(/C=C/c1ccccc1)Oc1ccc(/C=C2\CCC/C(=C\c3ccc(OC(=O)/C=C/c4ccccc4)cc3)C2=O)cc1 | inhibition |  | 12.5 µg/mL | H37Rv |  |  | 0% |
| N#C/C(=C\c1cc(Cl)cc(Cl)c1)n1nnc2ccccc21 | MIC50 |  |  | ATCC 27294 |  |  | 63.8 µM |
| CCC(C)N(C(=S)Nc1ccccc1)c1ccc(Cl)c(Cl)c1 | MIC |  |  |  |  | visual reading | >400 µg/mL |
| Cc1cccc2c(=O)n3c(nc12)C(=O)c1cc(F)ccc1-3 | MIC |  |  | MDR 10038 |  |  | 5 µg/mL |
| COC1OC2COC(C)(C)OC2C2OC(C)(C)OC12 | MIC bound |  |  | H37Rv |  | BACTEC | >12.5 µg/mL |
| CC(C)N(C(=S)Nc1ccccc1)c1ccc(F)c(Cl)c1 | MIC |  |  |  |  | visual reading | >400 µg/mL |
| COc1ccc(N=Nc2ccc3oc(=O)c(C(=O)Nc4ccccc4)cc3c2)cc1 | MIC bound |  |  | H37Rv |  | resazurin | >6.25 µg/mL |
| CCCCCCCCNC(CC(=O)OCC)c1cccc([N+](=O)[O-])c1 | MIC |  |  | Sensitive strains |  |  | 25 µg/mL |
| S=C(Nc1ccccc1)N(c1ccc(Cl)c(Cl)c1)C1CCCCC1 | zone |  | 1000 µg/mL |  |  | visual reading | 13.93 mm |
| CCCCCCCCCCCCCCCCNCc1ccc(F)cc1 | MIC |  |  | H37Ra |  |  | <25 µg/mL |
| CCOC(=O)C1NC(=O)CNC1=O | MIC bound |  |  | H37Rv |  | BACTEC | >12.5 µg/mL |
| COc1ccc(-c2noc(C3=CC4(CCN(CCO)CC4)c4ccccc43)n2)cc1 | MIC |  |  | H37Rv |  | resazurin | 12 µM |
| CC(=O)NN(C/C=C/Cl)C/C=C/Cl | MIC bound |  |  | H37Rv |  | BACTEC | >12.5 µg/mL |
| CN1CCN(c2c(F)cc3c(c2F)-n2c(nc4ccccc4c2=O)C3=O)CC1 | MIC |  |  | H37Rv |  |  | >5 µg/mL |
| Nc1nc(Nc2ccc(Cl)c(Cl)c2)cc(=O)[nH]1 | inhibition |  | 12.5 µg/mL | H37Rv |  | BACTEC | 28% |
| CC[C@@H](CO)NCCN[C@@H](CC)CO | MIC |  |  | Isolate 16 |  |  | 0.5 µg/mL |
| O=C(CCSCCC(=O)N/N=C\C(O)C(O)C(O)C(O)CO)N/N=C\C(O)C(O)C(O)C(O)CO | MIC bound |  |  | H37Rv |  | BACTEC | ≤12.5 µg/mL |
| Cc1ccc2nc3n(c(=O)c2c1)-c1ccc(F)cc1C3=O | MIC |  |  | MDR 10038 |  |  | 1 µg/mL |
| O=c1/c(=C\c2ccc(Cl)cc2)sc2nc(-c3ccccc3)nn12 | inhibition |  | 12.5 µg/mL | H37Rv |  | BACTEC | 0% |
| COc1ccc(/C=C/C(=O)Oc2ccc(/C=C3\CCCCC3=O)cc2)cc1 | inhibition |  | 12.5 µg/mL | H37Rv |  |  | 1% |
| COc1ccc(C2=C(c3ccccc3)c3c(OC)cc(OC)cc3OC2)cc1 | MIC bound |  |  | H37Rv |  | BACTEC | >12.5 µg/mL |
| Cc1cccc2nc3n(c(=O)c12)-c1ccc(F)cc1C3=O | MIC |  |  | H37Rv |  |  | 1 µg/mL |

Rows are shuffled and stem from different studies. MIC bound comes from a single tested concentration. Inhibition is in % at the dose shown (toxicity tests: loss of growth or viability). ECn is the concentration giving n% inhibition of infection, replication or growth. Blank or dashed fields: not listed here. Zones are inhibition diameters on agar.